For one experiment, the target named is α9-ECD (Homo sapiens, UniProt Q9UGM1). Put plainly: Binding of RgIA to the α9-ECD (overall, both glycosylation states). The following applies: competition with [125I]α-Bgtx, glycosylated or deglycosylated α9-ECD.
Another experiment addresses deglycosylated α9-ECD (Homo sapiens, UniProt Q9UGM1). The experiment in a line: Competition of [125I]α-Bgtx binding by RgIA, deglycosylated α9-ECD. The conditions noted are these: read-out: Ki value for deglycosylated α9-ECD; competition with 50 nM [125I]α-Bgtx; 100 nM protein on Ni2+-NTA beads; PB-BSA pH 7.4; overnight at 4°C; RgIA 1 nM–200 μM; triplicate; mean ± SEM, at least three independent experiments (graph from four experiments).

By UniProt entry, the sequences of proteins in these tests, tags left out. Residues count along the entry.
UniProt Q9UGM1, 23-238 limits assumed: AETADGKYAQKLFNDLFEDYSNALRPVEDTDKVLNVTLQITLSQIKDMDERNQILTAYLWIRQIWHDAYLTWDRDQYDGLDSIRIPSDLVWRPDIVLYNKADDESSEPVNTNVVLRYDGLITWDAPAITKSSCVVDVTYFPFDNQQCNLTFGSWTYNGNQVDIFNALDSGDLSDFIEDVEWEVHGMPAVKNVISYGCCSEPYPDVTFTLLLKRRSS

For the next experiment, the target named is glycosylated α9-ECD (Homo sapiens, UniProt Q9UGM1). The experiment in a line: Competition of [125I]α-Bgtx binding by RgIA, glycosylated α9-ECD. The following applies: read-out: Ki value for glycosylated α9-ECD; competition with 50 nM [125I]α-Bgtx; 100 nM protein on Ni2+-NTA beads; PB-BSA pH 7.4; overnight at 4°C; RgIA 1 nM–200 μM; triplicate; mean ± SEM, at least three independent experiments (graph from four experiments).

As usually defined, the Ki is a dissociation constant, usually derived from enzyme kinetics or from competition with a known ligand.

As for `N=C(N)NCCC[C@H](NC(=O)[C@@H]1CSSC[C@@H]2NC(=O)[C@@H](NC(=O)CN)CSSC[C@H](NC(=O)[C@H](CCCNC(=N)N)NC(=O)[C@@H]3CCCN3C(=O)[C@H](CC(=O)O)NC(=O)[C@H](CO)NC2=O)C(=O)N[C@@H](CCCNC(=N)N)C(=O)N[C@@H](Cc2ccc(O)cc2)C(=O)N[C@@H](CCCNC(=N)N)C(=O)N1)C(N)=O`, at α9-ECD, the “binding affinity (Ki) of RgIA to the α9-ECD, in words” value was “low micromolar range”. `NCC(=O)N[C@H]1CSSC[C@@H]2NC(=O)[C@H](CCCN=C(N)N)NC(=O)[C@@H]3CCCN3C(=O)[C@H](CC(=O)O)NC(=O)[C@H](CO)NC(=O)[C@H](CSSC[C@@H](C(=O)N[C@@H](CCCN=C(N)N)C(N)=O)NC(=O)[C@H](CCCN=C(N)N)NC(=O)[C@H](Cc3ccc(O)cc3)NC(=O)[C@H](CCCN=C(N)N)NC2=O)NC1=O`: the Ki was 2700 nM at deglycosylated α9-ECD and 13.3 µM on glycosylated α9-ECD.

The values are drawn from publication PMC6504684 (Frontiers in Pharmacology, 2019).
